Data as given in patent publication US8076375B2 (priority 2005, dated 2011).

Experiments:
[1] = biological target: variola F10 kinase (GST-F10) (Variola virus, UniProt P33801, R299C); conditions: 10 μM inhibitor
[2] = biological target: vaccinia virus B1 kinase (GST-B1) (Vaccinia virus, UniProt P20505); test: Scintillation proximity assay / in vitro protein kinase assay with GST-B1 and casein; format: biochemical

Question: `Cc1nn(-c2ccc(S(=O)(=O)O)cc2)c(O)c1N=Nc1ccc(-c2ccc(N=Nc3ccc4c(S(=O)(=O)O)cc(S(=O)(=O)O)c(N)c4c3O)c(O)c2)cc1O` was tested. Which “Percent activity remaining at 10 μM, F10” value [1] did it give?
Answer: 4%

Question: What about the IC50 [2] of the same molecule?
Answer: 2500 nM

Question: What about the “Percent activity remaining at 10 μM, B1” value ([2]; 10 μM inhibitor) of the same molecule?
Answer: 6%
